Data source: PubChem BioAssay AID1259414 (Drosophila RNAi Screening Center, 2018)
The screen tested about 24,000 reagents; below is a random part of those with a known target gene and a result. Over the whole deposit, about 1,210 (5%) were called active. 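Inactive calls also include excluded dsRNAs with several or no targets, genes unexpressed in JW18, and well A1, regardless of score.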 A plus sign joins genes that one reagent is predicted to hit.

- Screen: 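Genome-wide screen for host control of endosymbiont load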 (primary screen)
- Cells: Drosophila JW18 cells infected with Wolbachia
- Reagents: long dsRNA against Drosophila genes, 0.25 µg dsRNA per well of a 384-well plate
- Time to read-out: 5 days
- Treatment: cells persistently infected with Wolbachia before knock-down; no added drug
- Measurement: 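Automated imaging of bacterial rRNA staining divided by host cell count, reported as plate-normalised robust z-score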
- Scale: Wolbachia per cell robust z: higher = more Wolbachia per host cell than the plate typical
- Hit rule: 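Hit when robust z is 1.5 or more, or -1.5 or less, in at least two of three replicates; excludes dsRNAs with several or no targets, genes not expressed in JW18 and well A1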

no.	Gene	DRSC id	Wolbachia per cell robust z, rep 1	Wolbachia per cell robust z, rep 2	Wolbachia per cell robust z, rep 3	Outcome
1	CG32547	DRSC19263	-0.541	0.214	0.555	inactive
2	CG32547	DRSC19474	1.26	-0.447	1.44	inactive
3	CG14646	DRSC12232	0.0623	0.805	-0.201	inactive
4	CG14646	DRSC21316	-0.243	0.96	0.811	inactive
5	CG42367	DRSC21388	0.602	0.959	-0.769	inactive
6	CG42367	DRSC24728	0.547	0.363	0.964	inactive
7	CG17249	DRSC08517	0.658	0.849	-0.0751	inactive
8	CG6800	DRSC16119	-0.161	-0.288	-1.21	inactive
9	CG6800	DRSC41616	-2.98	0.785	0.441	inactive
10	CG34225	DRSC38879	-0.373	0.35	-1.32	inactive
11	ClC-a	DRSC14947	-0.00377	1.33	-3.63	inactive
12	ClC-a	DRSC14948	0.453	0.404	-0.153	inactive
13	ClC-a	DRSC16142	-3.87	1.01	1.14	inactive
14	asRNA:CR43299 + CG8119	DRSC27407	-0.227	-0.385	-0.125	inactive
15	CG4988	DRSC02800	0.00749	0.463	-0.291	inactive
16	betaTry	DRSC07582	-4.1	0.254	-0.86	inactive
17	betaTry	DRSC22377	-0.234	0.543	-0.105	inactive
18	betaTry	DRSC29939	0.396	-1.17	0.846	inactive
19	ci	DRSC17172	-1.05	-0.126	0.918	inactive
20	GstT1	DRSC06243	-3.7	0.351	-3.04	active
21	MYPT-75D	DRSC10743	-0.0596	-1.09	0.662	inactive
22	shop	DRSC20030	1.25	-1.04	-0.997	inactive
23	shop	DRSC26764	-8.49	-0.181	-5.62	active
24	CG4839	DRSC02783	-0.135	-0.0358	0.129	inactive
25	CG4839	DRSC02784	1.19	0.71	1.05	inactive
26	siz	DRSC11622	0.582	0.827	-5.77	inactive
27	siz	DRSC11690	0.155	-0.545	0.635	inactive
28	siz	DRSC27379	-0.0407	0.599	0.363	inactive

Only “Wolbachia per cell robust z, rep 1” (4 entries from above):
CG4839 [DRSC02784]	1.19
siz [DRSC11622]	0.582
siz [DRSC11690]	0.155
siz [DRSC27379]	-0.0407
